Human monoclonal antibodies against the spike receptor-binding domain (heavy:light variable regions). IC50 against pseudoviruses bearing the spike of naturally observed variants; lower = stronger; >10 µg/ml means not reached at the top dose. No active / inactive call. The stated detection limit is 0.0005 µg/ml; values near or below 0.001 µg/ml lie at the floor of the assay.
B1: BD-614 (protein)
chain 1: QVQLVESGGGLVQPGGSLRLSCAASGLIVSSNYMSWVRQAPGEGLEWVSVIYSGGSTYYADSVKGRFTISRDTSKNTLYLQMNSLRAEDTAVYYCARARIYTYGPDYWGQGTLVTVSS
chain 2: not shown
B2: BD-846 (protein)
chain 1: EVQLLQSGGGLVQPGGSLRLSCGASGITFSNHAMNWVRQAPGKGLEWVSIISGSGDNAYYSDSVKGRFTISRDNSKNTLYLQMNSLRVEDTAVYYCARDNRVSTYFTYFGAFDIWGQGTRVTVSS
chain 2: SYVLTQPPSVSVAPGQTARITCGGDNIGSKNVHWYQQKPGQAPILVVYDDTDRPSVIPERFSGSNSGNTATLTISRVEAGDEADYYCQVWDSDSDPPIGGGTKLTVL
B3: BD-833 (protein)
chain 1: QVQLQESGPGLVQPSQALSLTCTVSGASISNHNYYWSWIRQHPGKGLEWIGFIYYGVNTNYSPSLKSRATISVDTSKNQFSLKLSSLTAADTAVYYCARWETYYPLDAFDIWGQGTMVTVSS
chain 2: QSALTQPASVSGSPGQSITISCTGTSSDVGGYNYVSWYQQHPGKAPKLVVFDVARRPSGVSNRFSGSKSGNTASLTISGLQAEDEADYFCSSYATSNTVLFGGGTKLTVL
B4: BD-899 (protein)
chain 1: QVQLQESGPGLVKPSQTLSLTCTVSGDSIRSGDYYWSWIRRPPGKDLEWIGYIYYNGNSYYNPSLRSRLTLSVDTSKNRFSLRLSSVTAADTAVYYCARSLWFGEFSDAFDVWGQGTLVTVSS
chain 2: QSVLTQPPSVSAAPGQRVTISCSGSNSNIGNNYGSWYQQVPGAAPKLLIYDINKRPSGIPDRFSGSKSGTSATLAITGLQIGDEADYYCASWDSSLSAVVFGGGTKVTVL
B5: BD-835 (protein)
chain 1: QVQLVQSGAEVKKPGSSVKVSCKTSGDNFSRFAINWVRQAPGQGLEWMGRIIPLFGNANYAQKFQGRVSMTADKSTSTAYMDLSSLRSEDTAIYYCARSEFFSDSRGYFFDNWGQGTLVTVSS
chain 2: EIVLTQSPGTLSLSPGERATLSCRASQSLSSSYLAWYQQKPGQAPRLLIYGASIRATGIPDRFSGSGSGTDFTLTISRLEPEDFAVYYCQQYHGSPRTFGQGTKVEVK
B6: BD-837 (protein)
chain 1: QMQLVQSGPEVKKPGTSVKISCKASGFTFDISAVQWVRQARGQRLEWMGWVVVGSGNTDYAQKFQERVTITRDMSTNTAYMELSSLRVDDTAAYFCAAPHCNKTNCYDGFDIWGQGTVVTVSP
chain 2: EFVLTQSPGTLSLSPGERPTLSCRASQNIRSSYLAWYQQKPGQAPRLLIYSASRRATGIPDRFSGSGSGTDFTLTISRLDPEDFAVYYCQQYGSSPWTFGQGTKVEV
B7: BD-901 (protein)
chain 1: QVQLVQSGADVKKPGSSVKVSCKASGGTFSSSDISWVRLAPGHGLEWMGKIIPTLGIPNYAEKFEGRVTITADKSANIAYMELSGLRSDDTAVYYCAKDRGYSGPGAAVYYDSWGQGTLVTVSS
chain 2: QSVLTQPPSVSGAPGQRVTISCTGSSSNIGAGYDVHWYQQLPGTAPKLLVYRNTYRPSGVPDRFFGSKSGTSASLLITGLQAADEADYYCQSYDSSLIGSIFGGGTKLTVL

Biological target: SARS-CoV-2 Omicron BA.1 spike pseudovirus
Test: pseudovirus neutralization IC50; higher = weaker neutralization
Description: (§1)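 Single-round VSV luciferase pseudovirus mixed with antibody dilutions for 1 h and put on Huh-7 cells for about a day; IC50 from the dose curve.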

First: B1
Second: B2
The “pseudovirus neutralization IC50” value of the first is lower: 0.0375 µg/mL for the first, greater than 10 µg/mL for the second.

B3 and B4 cannot be ordered by “pseudovirus neutralization IC50” value: greater than 10 µg/mL for the first, greater than 10 µg/mL for the second.

Compared with B5, B6 is lower in “pseudovirus neutralization IC50” value: greater than 10 µg/mL for the first, 0.00082 µg/mL for the second.

B7 was tested, and the “pseudovirus neutralization IC50” value was 0.165 µg/mL.

Biological target: SARS-CoV-2 Omicron BA.2 spike pseudovirus
Test: as above
Description: as §1

Going from B1 to B2, the “pseudovirus neutralization IC50” value rises from 0.0278 µg/mL to greater than 10 µg/mL.

B3 and B4 cannot be ordered by “pseudovirus neutralization IC50” value: greater than 10 µg/mL for the first, greater than 10 µg/mL for the second.

Going from B5 to B6, the “pseudovirus neutralization IC50” value falls from greater than 10 µg/mL to 0.00083 µg/mL.

In the case of B7, the “pseudovirus neutralization IC50” value is reported as 0.238 µg/mL.

Biological target: SARS-CoV-2 Omicron BA.2.75 spike pseudovirus
Test: as above
Description: as §1

First: B1
Second: B2
The “pseudovirus neutralization IC50” value of the first is lower: 3.07 µg/mL for the first, greater than 10 µg/mL for the second.

B3 and B4 cannot be ordered by “pseudovirus neutralization IC50” value: greater than 10 µg/mL for the first, greater than 10 µg/mL for the second.

First: B5
Second: B6
The “pseudovirus neutralization IC50” value of the first is higher: greater than 10 µg/mL for the first, 0.00031 µg/mL for the second.

In the case of B7, the “pseudovirus neutralization IC50” value is reported as 0.244 µg/mL.

Biological target: SARS-CoV-2 Omicron BA.5 spike pseudovirus
Test: as above
Description: as §1

Compared with B1, B2 is higher in “pseudovirus neutralization IC50” value: 0.0312 µg/mL for the first, greater than 10 µg/mL for the second.

B3 and B4 cannot be ordered by “pseudovirus neutralization IC50” value: greater than 10 µg/mL for the first, greater than 10 µg/mL for the second.

Compared with B5, B6 is lower in “pseudovirus neutralization IC50” value: greater than 10 µg/mL for the first, 0.00954 µg/mL for the second.

With B7 the “pseudovirus neutralization IC50” value was 1.05 µg/mL.

Biological target: SARS-CoV-2 Omicron BQ.1.1 spike pseudovirus
Test: as above
Description: as §1

Compared with B1, B2 is higher in “pseudovirus neutralization IC50” value: 1.95 µg/mL for the first, greater than 10 µg/mL for the second.

B3 and B4 cannot be ordered by “pseudovirus neutralization IC50” value: greater than 10 µg/mL for the first, greater than 10 µg/mL for the second.

Going from B5 to B6, the “pseudovirus neutralization IC50” value falls from greater than 10 µg/mL to 1.04 µg/mL.

B7 was tested, and the “pseudovirus neutralization IC50” value was greater than 10 µg/mL.

Biological target: SARS-CoV-2 Omicron XBB spike pseudovirus
Test: as above
Description: as §1

First: B1
Second: B2
The “pseudovirus neutralization IC50” value of the first is lower: 4.43 µg/mL for the first, greater than 10 µg/mL for the second.

B3 and B4 cannot be ordered by “pseudovirus neutralization IC50” value: greater than 10 µg/mL for the first, greater than 10 µg/mL for the second.

B5 and B6 cannot be ordered by “pseudovirus neutralization IC50” value: greater than 10 µg/mL for the first, greater than 10 µg/mL for the second.

In the case of B7, the “pseudovirus neutralization IC50” value is reported as greater than 10 µg/mL.

Biological target: SARS-CoV-2 early D614G spike pseudovirus
Test: as above
Description: as §1

Going from B1 to B2, the “pseudovirus neutralization IC50” value rises from 0.0431 µg/mL to greater than 10 µg/mL.

B3 and B4 are within 1.5-fold of each other in “pseudovirus neutralization IC50” value: 0.04 µg/mL for the first, 0.052 µg/mL for the second.

Going from B5 to B6, the “pseudovirus neutralization IC50” value rises from 0.005 µg/mL to 0.017 µg/mL (3.4-fold).

B7 was tested, and the “pseudovirus neutralization IC50” value was 0.113 µg/mL.
